Laboratory results published in the supplement of paper PMC9931576.
Where a chain is given by its changes, count along the chain named. Human monoclonal antibodies against the spike receptor-binding domain (heavy:light variable regions). IC50 against pseudoviruses bearing the spike of naturally observed variants; lower = stronger; >10 µg/ml means not reached at the top dose. No active / inactive call. The stated detection limit is 0.0005 µg/ml; values near or below 0.001 µg/ml lie at the floor of the assay.

B1: BD55-6263 (protein)
chain 1: HVQLQESGPGLVKPSQTLSLICNVSGGSISSGSYYWNWVRQPAGKGLEWIGHMYSGGRTSYNPSLKSRVTISVDTSKNQLSLSLKSATAADTAVYYCAREGEGGPIYSGYDHLDHYGMDVWGQGTTVTVSS
chain 2: SYELTQPPSVSVSPGQTATISCSGDKLADSYAFWYQQKPGQSPVLVIYRDNRRPSGIPERFSGSNSGNTATLTISGTQAMDESDYYCQAWDASTMIFGGGTKLTVL
B2: BD55-6272 (protein)
chain 1: QVQLVQSGAEVRKPGSSVKVSCKASGGTFSSYAVSWVRQAPGQGLEWMGGIIPLFGTSNYAQKFQARVTITADGSTDTVYMELSSLTSEDTALYYCARAMDTALPPFFDYWGQGTLVTVSS
chain 2: EIVLTQSPATLSLSPGERATLSCKASQSVGSYLAWYQQKPGQAPRVLIYDASNRATGIPARFSGSGSGTDFTLTISSLEPEDFAVYYCQQRSNWPLTFGGGTKVEIK
B3: BD55-1205 (protein)
chain 1: EVQLVESGGGLVQPGGSLRLSCAVSGFTVSRNYMTWARQAPGKGPEWVSVIYPGGSTFYADSVKGRFTISRDSSKNILYLQMNSLRVDDTAVYYCARDLTIRGEASWGQGTLVTVSS
chain 2: EIVMTQSPATLAVSPGERATLSCRASESFNSNLAWYQQKPGQAPRLLIYGASTRASDVPARFSGSGSGTEFTLTISSVQSEDFAVYYCQQYGDWPLWTFGQGTKVEI
B4: BD55-6276 (protein)
chain 1: QVLLVQSGAEVEKPGASVKVSCKASGYTFTNYYIHWVRQAPGQGLEWMGMINPSGGSTTFAQKFQGRVTMTSDTSTYTVYMEVSGLISEDTAVYYCARDGGSAASHYYYYMDVWGKGTTVTVSS
chain 2: DIQMTQSPSSLSASVGDRVTITCRASQSISNFLNWYQQKPGEAPKVLIYAASNLQSGVPSRFSGSGSGTDFTLTISSLQPEDFATYYCQQGYTTPTWTFGQGTKVEIK
B5: BD55-6284 (protein)
chain 1: EVQLVESGGGLVQPGRSLRLSCAASGFTFDDYAMHWVRQAPGKGLEWVSGISWNSASVGYADSVRGRFTISRDNAKNSLYLQMNSLRAEDTALYYCASMLTFGGDSAFDYWGQGTLVTVSS
chain 2: IQLTQSPSSLSASVGDRVTIACRASQGISTYLAWYQQKPGKAPKLLIYAASILQSGVPSRFSGSGSGTDFTLTISSLQPEDFATYYCQQLNSYPYTFGQGTKLEIK
B6: BD55-6287 (protein)
chain 1: QVLLVESGGGVVQTGRSLRLSCAASGFTFSTSAIHWVRQAPGKGLEWVAVISYNGNKKYYADSVKGRFTISRDNSEDTVSLQMNSLGPEDTAVYYCARDSGWYHYFDHWGQGTLVTVSS
chain 2: QSVLTQPPSVSGAPGQRVTISCTGSTSNIGAGYDVYWYQQLPGAAPKVLIYLNSNRPSGVPDRFSGSKSGPSASLAITGLQVEDEADYYCQSYDSSLGVLVFGGGTKLTVL
B7: BD55-6292 (protein)
chain 1: EVQLVESGGGLVQPGGSLRLSCAASGFTFSNYAMHWVRQAPGKGLEYVSAITSDGGGKFYADAVKGRFTISRDNSRNTLFLQMGGLITEDTAVYYCAREGSGYRMYFDYWGQGALVTVAS
chain 2: B4 chain 2 with N31T, F32N, E42K, V46L, A50I, N53S, G91T, T96S, W97Y, V105L
B8: BD55-6293 (protein)
chain 1: QLQLQESGPGLVKPSETLSLTCTVSGGSISSSNYYWGWIRQPPGKGLEWIGNIYYSGITYYYPSLKSRVTISVDTSKNQFSLKLSSVTAADTAIYHCARLVRRWQDFVASGAFDIWGQGTMVTVSS
chain 2: QSALTQPASVSGSLGQSITISCTGTSSDVGSYNLVSWYQQHPGKAPKIIIYEVTKRPPGVSNRFSGSKSGNTASLTISGLQAEDEADYYCCSHAGSSMVFGGGTKLTVL
B9: BD55-6296 (protein)
chain 1: QVQLVQSGAEVKKPGASVKVSCKASGYTFTNYYLHWVRLAPRQGLEWMGMINPSGGESTYAQKFQGRATMTRDTSTSTVYMELSSLRSEDTAVYYCARDGGAAASHYYYYMDVWGIGTTVTVSS
chain 2: B4 chain 2 with Q38L, K39T, E42K, G91S, T93S
B10: BD55-6304 (protein)
chain 1: EVQLVQSGAELKKPGESLKISCKASGYTFSYSWIAWVRQKPGKGLEWMGVLYPDDSDTRYSPSFQGQVTISADRSTDTAYLEWSSLKASDTAIYYCARLWSGYMYGIIENWGQGTLVTVSS
chain 2: DIVMTQSPDSLAVSLGERATINCKSSQSVLYSSNNKNYLAWYQQKPGQPPKLLIFWASTRESGVPDRFSGSGSGTDFTLTISSLQAEDVAVYYCQQYSNSLPTFGQGTKVEIK
B11: BD55-6306 (protein)
chain 1: QVQLVQSGAEVKKPGSSVKVSCKASGGTFSSYTISWVRQAPGQGLEWMGRIIPIVARANYAQKFQGRVTITADKSMSTVYMEMRSLRSEDTAVYYCATEGLRGYSGYDFVINWFDPWGQGTLVTVSS
chain 2: QSVLTQPPSVSGAPGQRVTISCTGSSSNIGAGYEVHWYQQFPGTAPKLLIYDDNNRPSGVPDRFSGSKSGTSASLAITGLQAEDEADYYCQSFDSSLSGSALFGGGTKLTVL
B12: BD55-6308 (protein)
chain 1: QVQLVQSGAEMKKPGASVKVSCKASGFTFTNYRFSWVRQAPGQGLEWMGWISAYNGDTHYAQTLQGRVTMITDTSTNTAYMELRSLRSDDTAVYYCARGGVVGGYSGYDLLDDISFDSWGQGTLVTVSS
chain 2: SYELTQPPSVSVSPGQTARITCSGDVLPNQYVYWYQQRPGQAPVLMIFKDTERPSGIPERFSGSRSGTSVTLTITGVQAEDEADYYCQSAVSSGAFFSYVFGTGTKVTVL

molecular target: SARS-CoV-2 Omicron BA.1 spike pseudovirus; assay: pseudovirus neutralization IC50; higher = weaker neutralization
Description: (§1)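 Single-round VSV luciferase pseudovirus mixed with antibody dilutions for 1 h and put on Huh-7 cells for about a day; IC50 from the dose curve.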

Binder | pseudovirus neutralization IC50 [µg/mL]
B1 | > 10
B2 | > 10
B3 | 0.0052
B4 | > 10
B5 | > 10
B6 | > 10
B7 | > 10
B8 | > 10
B9 | > 10
B10 | 1.24
B11 | > 10
B12 | > 10

molecular target: SARS-CoV-2 Omicron BA.2 spike pseudovirus; assay: as above
Description: as §1

Binder | pseudovirus neutralization IC50 [µg/mL]
B1 | > 10
B2 | > 10
B3 | 0.00551
B4 | > 10
B5 | > 10
B6 | > 10
B7 | > 10
B8 | > 10
B9 | > 10
B10 | 0.89
B11 | > 10
B12 | > 10

molecular target: SARS-CoV-2 Omicron BA.2.75 spike pseudovirus; assay: as above
Description: as §1

Binder | pseudovirus neutralization IC50 [µg/mL]
B1 | > 10
B2 | > 10
B3 | 0.00413
B4 | > 10
B5 | > 10
B6 | > 10
B7 | > 10
B8 | > 10
B9 | > 10
B10 | 1.17
B11 | > 10
B12 | > 10

molecular target: SARS-CoV-2 Omicron BA.5 spike pseudovirus; assay: as above
Description: as §1

Binder | pseudovirus neutralization IC50 [µg/mL]
B1 | > 10
B2 | > 10
B3 | 0.00348
B4 | > 10
B5 | > 10
B6 | > 10
B7 | > 10
B8 | > 10
B9 | > 10
B10 | 0.875
B11 | > 10
B12 | > 10

molecular target: SARS-CoV-2 Omicron BQ.1.1 spike pseudovirus; assay: as above
Description: as §1

Binder | pseudovirus neutralization IC50 [µg/mL]
B1 | > 10
B2 | > 10
B3 | 0.0139
B4 | > 10
B5 | > 10
B6 | > 10
B7 | > 10
B8 | > 10
B9 | > 10
B10 | > 10
B11 | > 10
B12 | > 10

molecular target: SARS-CoV-2 Omicron XBB spike pseudovirus; assay: as above
Description: as §1

Binder | pseudovirus neutralization IC50 [µg/mL]
B1 | > 10
B2 | > 10
B3 | 0.00635
B4 | > 10
B5 | > 10
B6 | > 10
B7 | > 10
B8 | > 10
B9 | > 10
B10 | > 10
B11 | > 10
B12 | > 10

molecular target: SARS-CoV-2 early D614G spike pseudovirus; assay: as above
Description: as §1

Binder | pseudovirus neutralization IC50 [µg/mL]
B1 | 0.13
B2 | > 10
B3 | 0.00331
B4 | > 10
B5 | > 10
B6 | > 10
B7 | > 10
B8 | > 10
B9 | > 10
B10 | 1.19
B11 | 0.158
B12 | 0.148
